{"source": "ChEMBL document CHEMBL3244321", "about": "“Nitramino acids. Synthesis and biological evaluation of 1-nitroproline, 1-nitropipecolic acid, and N-nitrosarcosine” (J Med Chem, 1977)", "system": "Mus musculus", "assay": "Acute toxicity in ip dosed Swiss-Webster mouse measured after 72 hrs", "assay_type": "organism-based", "conditions": "in vivo", "data": [{"smiles": "CN(CC(=O)O)[N+](=O)[O-]", "values": [{"measurement": "LD50", "result": 1.84, "unit": "mmol/kg"}]}]}
